Results of unrelated studies side by side (data: NIAID ChemDB).

All rows: tests on isolated targets; organism: HIV-1; target: Reverse transcriptase

a–b is a range or a potency band. ICn is the concentration giving n% inhibition. An empty or dashed field is not shown. Rows are shuffled and stem from different studies.

smiles	strain	mutations	measure	read by	result
N#Cc1cnc2c(Cl)cccc2c1Nc1ccc(Cl)cc1			IC50	RT activity / fluorescence	≤12 µM
C#CCOc1ccc(OC(C)=O)c2c1C(=O)c1ccccc1C2=O			IC50		84 µM
O=c1cc(Sc2ccc(Cl)cc2)[nH]c(=O)n1O			IC50	fluorescence	0.64 µM
CC(C(=O)CN1CCN(c2ccc(Br)cc2)CC1)N1C(=O)c2ccccc2C1=O			IC50	nucleotide incorporation / radiometric	63.76 µM
C#CCOc1ccc(OCC#C)c2c1C(=O)c1ccccc1C2=O			IC50		19 µM
Nc1ncnn2c(C[C@H](CF)OCP(=O)(O)OP(=O)(O)OP(=O)(O)O)cnc12			IC50	nucleotide incorporation / radiometric	0.05–0.25 µM
Cc1c(N2CCc3ccccc3C2)nn2c(C)nnc2c1C	IIIB		IC90	RT activity / fluorescence	94.3 µM
O=C1c2ccccc2C(=O)c2c(O)c(O)cc(O)c21			IC50	RT activity	9.3 µg/mL
N#Cc1cnc2c(Cl)cccc2c1Nc1cccc(F)c1			IC50	RT activity / fluorescence	≤10 µM
CC(C)=CCCC(C)C1CC/C(C)=C/C/C=C(/C=O)C1C=O			IC50	radiometric	9.2 µg/mL
O=C(NCCc1ccccc1)Nc1ccn[nH]1			IC50	nucleotide incorporation	>10 µg/mL
N#Cc1cnc2c(F)cccc2c1Nc1ccc(F)cc1			IC50	RT activity / fluorescence	≥50 µM
Nc1ncnn2c(COCCP(=O)(O)OP(=O)(O)OP(=O)(O)O)ccc12			IC50	nucleotide incorporation / radiometric	≥0.25 µM
Cc1nnc2c3ccccc3c(N3CCc4c(F)cccc4C3)nn12	98US_MSC5016		IC50	RT activity / fluorescence	4.32 µM
Cc1ccc(C)c(CS(=O)(=O)c2cccc[n+]2[O-])c1			IC50	nucleotide incorporation / radiometric	107 µg/mL
COc1c(C(=O)/C=C(/C)Nc2ccc([N+](=O)[O-])cc2)c(O)c(S(=O)(=O)Oc2ccc([N+](=O)[O-])cc2)c2occc12			IC50	RT activity / radiometric	0.0000069 µM
Cc1nnc(NC(=O)NCCc2ccccc2)s1			IC50	nucleotide incorporation	>10 µg/mL
N#Cc1cnc2c(F)cccc2c1Nc1cccc(F)c1			IC50	RT activity / fluorescence	≤12 µM
CC(C)(C)c1ccc(S(=O)(=O)c2c[nH]c3ccccc23)cc1		WT	IC50	RT activity	52 µM
O=S(=O)(Cc1ccccc1I)c1cccc[n+]1[O-]			IC50	nucleotide incorporation / radiometric	186 µg/mL
O=C(NCCc1ccccc1)Nc1ccc(Cl)cc1			IC50	nucleotide incorporation	>10 µg/mL
Cc1c(S(=O)(=O)c2ccccc2)[nH]c2ccccc12		K103N	IC50	RT activity	>100 µM
COc1cc(Cc2cnc(/N=C3\C(=O)N(CN4CCN(c5ccc6c(c5F)c(=O)c(C(=O)O)cn6C5CC5)CC4)c4ccc(C)cc43)nc2N)cc(OC)c1OC			IC50	nucleotide incorporation / radiometric	28.4 µM
O=C(NCCc1ccccc1)NCc1ccoc1			IC50	nucleotide incorporation	>10 µg/mL
C[C@H](Cc1cnn2c(N)ncnc12)OCP(=O)(O)OP(=O)(O)OP(=O)(O)O			IC50	nucleotide incorporation / radiometric	0.05–0.25 µM
N#Cc1cnc2c(F)cccc2c1Nc1cccc(Br)c1			IC50	RT activity / fluorescence	≤12 µM
O=[N+]([O-])c1ccc2c(c1)CN(c1nn3c(C4CC4)nnc3c3ccccc13)CC2	IIIB		IC90	RT activity / fluorescence	15.4 µM
O=C(OCCN1C(=O)c2ccccc2C1=O)c1ccc(Cl)c(Cl)c1			IC50	absorbance	2000 µM
CC(=O)C(C)Oc1ccc(O)c2c1C(=O)c1ccccc1C2=O			IC50		>100 µM
CCc1c(-c2coc(CC/C(C)=C/c3ccccc3)n2)oc(OC)c(C)c1=O			IC50		142 µg/mL
COc1c(N2CCN(CN3C(=O)C(=Nc4ccc(S(=O)(=O)Nc5nc(C)cc(C)n5)cc4)c4cc(F)ccc43)C(C)C2)c(F)cc2c(=O)c(C(=O)O)cn(C3CC3)c12			IC50	nucleotide incorporation / radiometric	18.4 µM
C[C@H](Cc1ccc2c(N)ncnn12)OCP(=O)(O)OP(=O)(O)OP(=O)(O)O			IC50	nucleotide incorporation / radiometric	<0.05 µM
CCCCCCCCCCCCCCCC/C=C\CCC#CCCC(=O)O[C@H](C)C[C@H](CCC[C@@](C)(O)CC(=O)NCCS(=O)(=O)O)CC(C)=O			Ki		1.5 µM
Nc1ccn([C@@H]2CS[C@H](COP(=O)(O)OP(=O)(O)OP(=O)(O)O)O2)c(=O)n1			Ki	nucleotide incorporation	0.34 µM
CC(Cc1cnc2c(=O)[nH]c(N)nn12)OCP(=O)(O)OP(=O)(O)OP(=O)(O)O			IC50	nucleotide incorporation / radiometric	0.05–0.25 µM
Nc1ccn([C@H]2CS[C@@H](COP(=O)(O)OP(=O)(O)OP(=O)(O)O)O2)c(=O)n1			Ki	nucleotide incorporation	0.22 µM
O=C(O[C@@H]1Cc2c(O)cc(O)cc2O[C@@H]1c1cc(O)c(O)c(O)c1)c1cc(O)c(O)c(O)c1			Ki		0.0028 µM
COc1ccccc1-c1cn(S(=O)(=O)c2ccc3ccccc3c2)c2ccccc12		K103N	IC50	RT activity	63 µM
COc1ccccc1CCNC(=S)Nc1ccccn1			IC50	radiometric	1 µM
N#Cc1cnc2c(F)cccc2c1Nc1ccccc1			IC50	RT activity / fluorescence	<8 µM
Cn1c(=O)c2[nH]c(NCCC34CC5CC(CC(C5)C3)C4)nc2n(C)c1=O			Ki	RT activity / radiometric	>200 µM
CC(C)=CCOc1cc(NC(=S)c2ccsc2C)ccc1Cl		RT-M184V	IC50		0.8 µM
O=C1c2ccccc2C(=O)c2c1ccc(O)c2O			IC50	RT activity	45 µg/mL
C#CC(O)/C=C/C/C=C/C=C/C=C/CC#CC(O)C#CC/C=C/C=C/C=C/CC(O)C#C			IC95	radiometric	4 µM
Cc1ccnc(NC(=O)NCCc2ccccc2)n1			IC50	nucleotide incorporation	>10 µg/mL
CC(C)=CCOc1cc(NC(=S)c2ccoc2C)ccc1Cl		RT-P236L	IC50		1.1 µM
C[C@H](Cc1ncc2c(N)ncnn12)OCP(=O)(O)OP(=O)(O)OP(=O)(O)O			IC50	nucleotide incorporation / radiometric	≥0.25 µM
COc1c(-c2cc(C)[nH]n2)c(O)c(S(=O)(=O)OC2CCCC2)c2occc12			IC50	RT activity / radiometric	0.000005 µM
O=C1c2ccccc2C(=O)c2c1cc(S(=O)(=O)O)c(O)c2O			IC50	RT activity	8.5 µg/mL
CC(Cc1ccc2c(N)nc(F)nn12)OCP(=O)(O)OP(=O)(O)OP(=O)(O)O			IC50	nucleotide incorporation / radiometric	<0.05 µM
Cc1nc(NC(=O)NCCc2ccccc2)sc1C			IC50	nucleotide incorporation	>10 µg/mL
Cc1cn(S(=O)(=O)c2ccc(C(C)(C)C)cc2)c2ccccc12		K103N	IC50	RT activity	48 µM
O=P(O)(O)OP(=O)(O)OP(=O)(O)OC[C@H]1O[C@@H](n2ccc3c(Cl)ncnc32)C[C@@H]1F			IC50	RT activity	304 µM
O=C(NCCc1ccccc1)Nc1nc2c(Cl)cccc2s1			IC50	nucleotide incorporation	>10 µg/mL
CC(C(=O)CN1CCN(c2ccc(C(F)(F)F)cc2)CC1)N1C(=O)c2ccccc2C1=O			IC50	nucleotide incorporation / radiometric	118 µM
Cn1c(=O)c2[nH]c(NCC34CC5CC(CC(C5)C3)C4)nc2n(C)c1=O			Ki	RT activity / radiometric	50 µM
Cc1c(S(=O)(=O)c2ccc(C(C)(C)C)cc2)[nH]c2ccccc12		K103N	IC50	RT activity	87 µM
N#Cc1cnc2c(Cl)cccc2c1Nc1cccc(Cl)c1			IC50	RT activity / fluorescence	≤12 µM
CC(C)(C)c1csc(NC(=O)NCCc2ccccc2)n1			IC50	nucleotide incorporation	>10 µg/mL
CC(C(=O)CN1CCN(c2ccccc2)CC1)N1C(=O)c2ccccc2C1=O			IC50	nucleotide incorporation / radiometric	486 µM
Cc1cccc2sc(NC(=O)NCCc3ccccc3)nc12			IC50	nucleotide incorporation	>10 µg/mL
O=S(=O)(c1ccccc1)c1c[nH]c2ccccc12		K103N	IC50	RT activity	81 µM
COc1ccc(N2CCN(CC(=O)C(C)N3C(=O)c4ccccc4C3=O)CC2)cc1			IC50	nucleotide incorporation / radiometric	2530 µM
CO.S=C([N-]c1ccc(Br)cn1)NCCc1ccccc1Cl.S=C([N-]c1ccc(Br)cn1)NCCc1ccccc1Cl.[O]=[V+2]			IC50	radiometric	2.1 µM
CCN1c2ncc(CCOc3ccc4cc(CC(=O)O)ccc4c3)cc2C(=O)N(C)c2cccnc21		RT-V106A	IC50	nucleotide incorporation / radiometric	0.1–1 µM
CSCO[C@]1(C)COC(C)(CC(=O)OC[C@@H]2C=C[C@H](n3cnc4c(N)ncnc43)O2)C1			IC50		>100 µM
FC(F)(F)Cc1nnc2c3ccccc3c(N3CCc4ccccc4C3)nn12	IIIB		IC90	RT activity / fluorescence	2.58 µM
COc1c(-c2cc(C)on2)c(O)c(S(=O)(=O)Oc2ccc([N+](=O)[O-])cc2)c2occc12			IC50	RT activity / radiometric	0.0000059 µM

Again, the opening 7 rows:

smiles	strain	mutations	measure	read by	result
N#Cc1cnc2c(Cl)cccc2c1Nc1ccc(Cl)cc1			IC50	RT activity / fluorescence	≤12 µM
C#CCOc1ccc(OC(C)=O)c2c1C(=O)c1ccccc1C2=O			IC50		84 µM
O=c1cc(Sc2ccc(Cl)cc2)[nH]c(=O)n1O			IC50	fluorescence	0.64 µM
CC(C(=O)CN1CCN(c2ccc(Br)cc2)CC1)N1C(=O)c2ccccc2C1=O			IC50	nucleotide incorporation / radiometric	63.76 µM
C#CCOc1ccc(OCC#C)c2c1C(=O)c1ccccc1C2=O			IC50		19 µM
Nc1ncnn2c(C[C@H](CF)OCP(=O)(O)OP(=O)(O)OP(=O)(O)O)cnc12			IC50	nucleotide incorporation / radiometric	0.05–0.25 µM
Cc1c(N2CCc3ccccc3C2)nn2c(C)nnc2c1C	IIIB		IC90	RT activity / fluorescence	94.3 µM